Laboratory results: patent US20250376472A1, “3-(PHENYLSULFONYL)-[1,2,3]TRIAZOLO[1,5A]QUINAZOLIN-5(4H)-ONE DERIVATIVES” (priority 2022, published 2025)

Amino acid sequences for entries named in this document (tags omitted).
UniProt P0A0I7, whole entry: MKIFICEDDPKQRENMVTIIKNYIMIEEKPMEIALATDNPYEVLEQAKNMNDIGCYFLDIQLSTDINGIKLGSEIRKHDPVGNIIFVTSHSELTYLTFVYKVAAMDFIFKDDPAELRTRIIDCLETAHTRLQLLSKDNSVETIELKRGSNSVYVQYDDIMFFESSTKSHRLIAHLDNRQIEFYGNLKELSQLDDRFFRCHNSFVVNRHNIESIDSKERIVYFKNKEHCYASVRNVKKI

Molecular target: AgrA (Staphylococcus aureus, UniProt P0A0I7)
Conditions: for Ratio IC50 (in presence of HSA)/IC50 (in absence of HSA): 40 mg/mL HSA versus no HSA; for IC50 at 40 mg/mL HSA: LB medium supplemented with human serum albumin 40 mg/mL; for IC50 without HSA: LB medium, no human serum albumin, 18 hours incubation

| Compound | Ratio IC50 (in presence of HSA)/IC50 (in absence of HSA) | IC50 at 40 mg/mL HSA | IC50 without HSA |
| --- | --- | --- | --- |
| COCCNC(=O)C(C)(C)N1CCN(c2ccc3c(=O)[nH]c4c(S(=O)(=O)c5ccc(C)cc5C)nnn4c3c2)CC1 | +++ (+++: ratio ≤ 25) | +++ (+++: IC50 ≤ 10 μg/mL) | +++ (+++: IC50 ≤ 1 μg/mL) |
| Cc1ccc(S(=O)(=O)c2nnn3c2[nH]c(=O)c2ccc(N4CCN(C(C)(C)C(=O)N5CCOCC5)CC4)cc23)c(C)c1 | +++ (+++: ratio ≤ 25) | +++ (+++: IC50 ≤ 10 μg/mL) | +++ (+++: IC50 ≤ 1 μg/mL) |
| Cc1ccc(S(=O)(=O)c2nnn3c2[nH]c(=O)c2ccc(N4CCN(CCC(=O)N5CCCCC5)CC4)cc23)c(C)c1 | +++ (+++: ratio ≤ 25) | ++ (++: 10 μg/mL < IC50 ≤ 50 μg/mL) | ++ (++: 1 μg/mL < IC50 ≤ 5 μg/mL) |
